PubChem BioAssay AID1259414 | Drosophila RNAi Screening Center, 2018
In all, the deposit lists about 24,000 reagents; shown is a random part of those with a known target gene and a result. In the full data, about 1,210 (5%) are marked active. 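Inactive calls also include excluded dsRNAs with several or no targets, genes unexpressed in JW18, and well A1, regardless of score.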 A number with no mark means an inactive call. The numbers tell different reagents against one gene apart. Names joined by + are all predicted targets of the reagent.

Purpose: 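Genome-wide screen for host control of endosymbiont load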 (primary screen)
Cells: Drosophila JW18 cells infected with Wolbachia
Knock-down reagent: long dsRNA against Drosophila genes, 0.25 µg dsRNA per well of a 384-well plate
Time to read-out: 5 days
Treatment: cells persistently infected with Wolbachia before knock-down; no added drug
Measurement: 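Imaged fluorescence in situ signal for Wolbachia 23S rRNA per DAPI-counted host cell, given as a robust z-score within each plate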
Scale: Wolbachia per cell robust z: higher = more Wolbachia per host cell than the plate typical
Call rule: 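Hit when robust z is 1.5 or more, or -1.5 or less, in at least two of three replicates; excludes dsRNAs with several or no targets, genes not expressed in JW18 and well A1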

target gene,dsRNA no.,"Wolbachia per cell robust z, rep 1","Wolbachia per cell robust z, rep 2","Wolbachia per cell robust z, rep 3"
Spn53F,1,-0.534,-1.4,-0.898
CG5122,1,-4.94,-0.339,0.793
N,1,-1.15,-1.63,-0.879
N,2,-1.18,-0.0693,1.4
CG13516,1,-3.48,1.45,0.693
CG8584,1,0.997,0.357,0.753
CG8584,2,-1.14,-1.56,0.603
Mhcl,1,0.165,1.06,0.517
Mhcl,2,0.527,0.335,-0.339
Mhcl,3,-1.1,-0.717,-1.01
lark,1,1.01,1.42,2.16
lark,2,2.2 (active),2.52,1.09
Uhg8,1,-1.99,1.09,0.977
Jhbp1,1,-3.07,0.24,-0.418
Jhbp1,2,-1.67 (active),-1.78,-0.632
CG43773 + CG43774,1,-0.461,-0.819,1.43
CLS,1,0.0403,-2.22,0.5
CLS,2,0.452,0.0109,0.772
MTA1-like,1,-0.531,-0.0696,-0.828
MTA1-like,2,-0.585,-1.97,-1.37
MTA1-like,3,-1.58,1.34,0.832
MTA1-like,4,0.905,-0.256,0.204
CG42336,1,-0.0154,-0.0755,0.565
CG42336,2,-2.1,-0.204,-0.0283
CG42336,3,0.172,0.0466,-2.83
CG42336,4,0.674,-1.54,-0.684
CG42336,5,-1.72,-0.549,-1.33
Bdp1,1,-0.0914,1.28,-0.146
Bdp1,2,-0.0679,1.37,1.2
chb,1,-0.52,-0.385,0.94
chb,2,0.216,0.641,0.0786
CG33998,1,1.19,-4.1,0.767
fh,1,0.781,0.579,-0.564
Rab5,1,0.361 (active),1.86,1.54
Rab5,2,0.279,3,1.11
Sys1,1,0.326,0.959,-4.61
CG8765,1,-1.15 (active),-2.87,-3.36
CG8765,2,-5.97,-5.66,-4.12
Muc68D,1,-0.0312,0.428,0.177
betaGlu,1,1.37,-0.452,-0.714
betaGlu,2,-0.882,-1.34,-2.07
betaGlu,3,0.178,1.46,-1.5
CG31627,1,-0.357,0.428,0.0983
bard,1,0.57,1,1.27
cbc,1,0.587,-0.198,0.82
TTLL3B,1,-0.435,1.89,0.444
TotM,1,0.498,-0.142,0.897
Sur,1,0.0574,-0.0491,0.521
Sur,2,-0.00305,0.492,0.803
CG31223,1,1.68,0.741,-0.607
Trs23,1,0.916,1.23,1.7
Trs23,2,-0.571,-7.68,-0.307
CG13728,1,1.52,-0.61,-0.0977
nclb,1,0.138,-3.97,1.04
CG18088,1,1.42,-0.147,1.28

Entries above called active:
target gene,dsRNA no.,"Wolbachia per cell robust z, rep 1","Wolbachia per cell robust z, rep 2","Wolbachia per cell robust z, rep 3"
lark,2,2.2 (active),2.52,1.09
Jhbp1,2,-1.67 (active),-1.78,-0.632
Rab5,1,0.361 (active),1.86,1.54
CG8765,1,-1.15 (active),-2.87,-3.36

Next results:
target gene,dsRNA no.,"Wolbachia per cell robust z, rep 1","Wolbachia per cell robust z, rep 2","Wolbachia per cell robust z, rep 3"
CG12133,1,-2.22,0.427,-0.469
CG12133,2,-0.486,0.561,-1.62
sloth2 + sloth1,1,-0.218,-0.685,-4.36
SMC1,1,-0.173,0.759,-0.263
CG8281,1,0.0158,-0.462,-2.52
CG8420,1,1.19,1.16,-0.0837
Nup160,1,0.243,-0.892,-0.0778
CG11523,1,-1.47,0.0976,0.809
CG11523,2,0.0022,-0.0351,1.52
Tsp39D,1,0.915,-4.31,-0.327
CG14260,1,-0.265,0.032,-1.52
SrpRbeta,1,-1.57,1.06,-0.464
SrpRbeta,2,-0.245,-1.26,0.00605
dpr10,1,0.579,-0.338,1.84
dpr10,2,-0.754,0.796,0.312
dpr10,3,0.225,0.0226,-0.436
CG18004,1,-0.166 (active),-2.12,-3.4
CG18004,2,0.262,1.49,0.406
Cyp4ac3,1,-0.0464,-2.75,0.83
Muc96D,1,-0.669,0.364,-1.1
Muc96D,2,-0.573,-1.81,-1.52
CAH8,1,-0.585,-0.502,-1.7
COX7C,1,-3.17 (active),0.271,-3.09
Rab40,1,0.567,-2.47,0.88
CG6472,1,0.524,0.732,-1.94
CG14929,1,-0.523,-0.782,0.292
Art9,1,-0.407,-0.564,0.55
CG34386,1,-0.311,-0.271,0.846
CG34386,2,0.133,0.618,-1.09
CG34386,3,-0.191,-6.85,-0.65
CG9084,1,0.0441,-3.99,-2.62
CG33096,1,0.414,-0.0187,-2.42
CG33096,2,0.338,0.481,0.338
